B1: Fab A6 (phage-displayed) (Fab, V domains shown)
VH: EVQLVQSGAEVKKPGASVKVSCKASGYDFTDFYVHWVRQAPGQRLEWMGWINPGSGATDYAQKFQGRVTMTRDTSISTAYMEVSRLRSDDTAMYYCARPNAPRYMERLSATPSFDSWGQGTLVTVS
VL: EIVLTQSPGTLSLSPGEGATLSCRASQSVSSINLAWYQQKPGQAPRLLMYGASTRATGIPDRFSGSGSGTDFTLTISRLESEDFAVYYCQQYGSSPLTFGGGTKVEIK
B2: human monoclonal antibody A6 (IgG1) (antibody, V domains shown)
VH: B1 VH
VL: B1 VL
notes: also called hmAb A6; copies: 2 + 2

Biological target: ABLVs glycoprotein (G), on recombinant vesicular stomatitis virus rVSV-ABLVs-G (Australian bat lyssavirus (isolate …, UniProt Q9QSP1, strain))
Experiment: ELISA

Row | Binder | binding result (partners not purified) | binding result (one partner purified)
1 | B1 | binds | 
2 | B2 |  | binds

Source: PMC8001737, “Isolation and Characterization of Cross-Reactive Human Monoclonal Antibodies That Potently Neutralize Australian Bat Lyssavirus Variants and Other Phylogroup 1 Lyssaviruses” (Viruses, 2021)
